Assay results as given in PMC9797896 (Medicinal Chemistry Research, 2022).
“And” between values parts separate entries of the source, which are not always exact repeats. Equal values may be shown once.

Tests used:
Assay in all cases: cell-based
[1] = molecular target: SARS-CoV-2 RdRp (nsp12/7/8 complex) (Severe acute respiratory syndrome coronavirus 2, UniProt P0DTD1, P4715L); details: Inhibition of SARS-CoV-2 RdRp in vitro (EC50) Nsp12
[2] = molecular target: SARS-CoV-2 RdRp in the presence of ExoN (nsp12/7/8 + nsp14/10 complex) (Severe acute respiratory syndrome coronavirus 2, UniProt P0DTD1, I5967V/P4715L); details: Inhibition of SARS-CoV-2 RdRp in vitro (EC50) Nsp12 + Nsp14
[3] = molecular target: SARS-CoV-2 RdRp in the presence of mutated ExoN (nsp12/7/8 + nsp14mutant/10 complex, D90A/E92A) (Severe acute respiratory syndrome coronavirus 2, UniProt P0DTD1, P4715L)

## O=c1[nH]cnc2c([C@@H]3N[C@H](CO)[C@@H](O)[C@H]3O)c[nH]c12 [Forodesine, forodesine]
[1]
  EC50: ~230 nM and 230 nM
[2]
  EC50: ~330 nM and 330 nM
[3]
  EC50: 270 ± 30 nM
